Results on 2 substances are retold here after paper PMC8299157 (Antiviral Research, 2021).

In the assay the target is nsp14 (Severe acute respiratory syndrome coronavirus 2, UniProt P0DTD1). The following applies: read-out: dissociation constant KD.

Gp3A-3′-O-(5)FAM: the Kd came out at 1.66 ± 0.31 µM.

Take “S-(N^6-trFluoadenosyl)-L-homocysteine [SAH-N6-6tFluo]”: the Kd came to 3.16 ± 0.54 µM.

A word on the Kd: it is the constant that tells how readily two partners part at equilibrium.
